This note sets out measurements from publication PMC6658617, “Structure-Guided Identification of Resistance Breaking Antimalarial N‑Myristoyltransferase Inhibitors” (Cell Chemical Biology, 2019).

Chains of the proteins cited; added tags and fusions are not shown. Residues count along the entry.
UniProt A5K1A2, 27-410 G386E limits assumed: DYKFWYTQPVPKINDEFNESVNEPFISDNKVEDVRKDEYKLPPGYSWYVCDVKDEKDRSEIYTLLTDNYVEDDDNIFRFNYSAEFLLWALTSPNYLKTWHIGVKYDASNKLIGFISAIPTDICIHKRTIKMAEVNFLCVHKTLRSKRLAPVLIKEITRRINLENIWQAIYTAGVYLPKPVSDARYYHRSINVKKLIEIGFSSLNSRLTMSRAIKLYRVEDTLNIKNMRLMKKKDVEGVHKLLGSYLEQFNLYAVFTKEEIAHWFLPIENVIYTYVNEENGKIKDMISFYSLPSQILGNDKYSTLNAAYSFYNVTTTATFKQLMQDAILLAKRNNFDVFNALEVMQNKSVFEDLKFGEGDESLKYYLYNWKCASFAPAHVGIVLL

pEC50: −log10 of the molar value. Where two headings read alike, the source gives them in different places.

In experiment [1] the target is PvNMT[G386E] (Plasmodium vivax, UniProt A5K1A2, G386E). In words: Surface plasmon resonance (SPR) assay. The following applies: SPR equilibrium KD, 4 μM myristoylCoA, 25°C. The format is binding, P. vivax. A general note: SPR reads the build-up and loss of mass on a sensor chip optically.
For experiment [2], the system named is P. falciparum 3D7 parasites (PfNMT[WT]). The following applies: read-out: Growth assay PfNMT[WT] EC50; 3D7 WT compared with G386E clones (Figure 3A, Table S2); curves constrained at top and bottom.
The test system of experiment [3] is P. falciparum 3D7 PfNMT[G386E] clones. The conditions noted are these: for Ratio PfNMT[G386]/PfNMT[WT] EC50, Clone 1 / Ratio PfNMT[G386]/PfNMT[WT] EC50, Clone 2: EC50 of [G386E]/[WT].
The mark [4] stands for this setting: read-out: Growth assay PfNMT[G386E] Clone 1 EC50, 3D7 CRISPR-Cas9 G386E Clone 1.
[5] abbreviates: read-out: Growth assay PfNMT[G386E] Clone 2 EC50, 3D7 CRISPR-Cas9 G386E Clone 2.

As to `Cc1nn(C)c(C)c1Cc1nnc(-c2sc3ccccc3c2OC2CCNCC2)o1`, the “decrease in affinity (KD PvNMT[G386E] / KD PvNMT[WT])” value in experiment [1] is recorded as 100 fold. Moreover, the pEC50 in experiment [2] was 7.10; in experiment [3] (setting [4]), 5.82; in experiment [3] (setting [5]), 5.85. The “Ratio PfNMT[G386]/PfNMT[WT] EC50, Clone 1” value in experiment [3] was determined as 19. In experiment [3], the “Ratio PfNMT[G386]/PfNMT[WT] EC50, Clone 2” value was 18.
Consider `c1cnc(OC2CCNCC2)c(-c2nc(Cc3cccc4ncccc34)no2)c1`, for which the “decrease in affinity (KD PvNMT[G386E] / KD PvNMT[WT])” value in experiment [1] worked out at 20 fold. In addition, the pEC50 in experiment [2] was 7.03; in experiment [3] (setting [4]), 5.97; in experiment [3] (setting [5]), 6.02. Also, the “Ratio PfNMT[G386]/PfNMT[WT] EC50, Clone 1” value in experiment [3] is 12. In addition, the “Ratio PfNMT[G386]/PfNMT[WT] EC50, Clone 2” value in experiment [3] worked out at 10.

The term pEC50 denotes the EC50 on a negative log10 scale, so that one unit is a factor of ten.
